Patent publication US20250320281A1

Columns and labels:
Experiment in all cases: cell-based or functional assay
[1] = biological target: Env of the clade A HIV-1 pseudoviruses of the 162-pseudovirus panel (n = 26)
[2] = biological target: Env of the clade C HIV-1 pseudoviruses of the 162-pseudovirus panel (n = 27)
[3] = biological target: Env of all HIV-1 pseudoviruses of the cross-clade 162-pseudovirus panel (n = 162)
[4] = biological target: Env of the clade G HIV-1 pseudoviruses of the 162-pseudovirus panel (n = 15)
[5] = biological target: Env of the clade B HIV-1 pseudoviruses of the 162-pseudovirus panel (n = 31)
[6] = biological target: 162-pseudovirus panel representing all major circulating HIV-1 subtypes
[7] = biological target: Env of the clade D HIV-1 pseudoviruses of the 162-pseudovirus panel (n = 25)
[8] = biological target: Env of the clade AE HIV-1 pseudoviruses of the 162-pseudovirus panel (n = 10)
[9] = biological target: Env of the clade AG HIV-1 pseudoviruses of the 162-pseudovirus panel (n = 10)
[10] = biological target: Env of the clade F HIV-1 pseudoviruses of the 162-pseudovirus panel (n = 15)

Binder | Median IC50 (µg/ml) against viruses neutralized with an IC50 <50 µg/ml [1] | Median IC50 (µg/ml) against viruses neutralized with an IC50 <50 µg/ml [2] | Median IC50 (µg/ml) against viruses neutralized with an IC50 <50 µg/ml [3] | Median IC50 (µg/ml) against viruses neutralized with an IC50 <50 µg/ml [4] | Median IC50 (µg/ml) against viruses neutralized with an IC50 <50 µg/ml [5] | Median IC50 (µg/ml) against viruses neutralized with an IC50 <50 µg/ml [6] | Median IC50 (µg/ml) against viruses neutralized with an IC50 <50 µg/ml [7] | Median IC50 (µg/ml) against viruses neutralized with an IC50 <50 µg/ml [8] | Median IC50 (µg/ml) against viruses neutralized with an IC50 <50 µg/ml [9] | Median IC50 (µg/ml) against viruses neutralized with an IC50 <50 µg/ml [10]
4838_L06 (PGT-121) (antibody, V domains shown) VH: QMQLQESGPGLVKPSETLSLTCSVSGASISDSYWSWIRRSPGKGLEWIGYVHKSGDTNYSPSLKSRVNLSLDTSKNQVSLSLVAATAADSGKYYCARTLHGRRIYGIVAFNEWFTYFYMDVWGNGTQVTVSS VL: SDISVAPGETARISCGEKSLGSRAVQWYQHRAGQAPSLIIYNNQDRPSGIPERFSGSPDSPFGTTATLTITSVEAGDEADYYCHIWDSRVPTKWVFGGGTTLTVL | 0.02 µg/mL | 0.02 µg/mL | 0.03 µg/mL | 0.02 µg/mL | 0.02 µg/mL | 0.03 µg/mL | 0.01 µg/mL |  |  | 
5329_C19 (PGT-136) (antibody, V domains shown) VH: QLQLQESGPGLVKPSETLSLTCTVSGGSMRGTDWGENDFHYGWIRQSSAKGLEWIGSIHWRGRTTHYKTSFRSRATLSIDTSNNRFSLTFSFVTAADTAVYYCARHKYHDIFRVVPVAGWFDPWGQGLLVTVSS VL: EIVMTQSPPTLSVSPGETATLSCRASQNVKNNLAWYQLKPGQAPRLLIFDASSRAGGIPDRFSGSGYGTDFTLTVNSVQSEDFGDYFCQQYEEWPRTFGQGTKVDIK |  |  |  |  |  |  | 0.05 µg/mL |  |  | 
5343_B08 (PGT-135) (antibody, V domains shown) VH: QLQMQESGPGLVKPSETLSLSCTVSGDSIRGGEWGDKDYHWGWVRHSAGKGLEWIGSIHWRGTTHYKESLRRRVSMSIDTSRNWFSLRLASVTAADTAVYFCARHRHHDVFMLVPIAGWFDVWGPGVQVTVSS VL: EIVMTQSPDTLSVSPGETVTLSCRASQNINKNLAWYQYKPGQSPRLVIFETYSKIAAFPARFVASGSGTEFTLTINNMQSEDVAVYYCQQYEEWPRTFGQGTKVDIK |  | 0.05 µg/mL |  |  |  |  |  |  |  | 
5136_H01 (PGT-131) (antibody, V domains shown) VH: QVQLQESGPGLVKPSETLSLTCTVSGDSINTGHHYWGWVRQVPGKGPEWIAHIHYNTAVLHNPALKSRVTISIFTLKNLITLSLSNVTAADTAVYFCVRSGGDILYYIEWQKPHWFYPWGPGILVTVSS VL: QSALTQPPSASGSLGQSLTISCSGTGSDIGSWNFVSWYQQFPGRAPNLIIFEVNRRRSGVPDRFSGSKSGNTASLTVSGLRSEDEAEYFCSSLSGRWDIVFGGGTKVTVL | 0.09 µg/mL |  |  |  | 0.07 µg/mL |  |  | 0.08 µg/mL |  | 
5147_N06 (PGT-130) (antibody, V domains shown) VH: QVQLQESGPGLVKPAETLSLTCSVSGESINTGHYYWGWVRQVPGKGLEWIGHIHYTTAVLHNPSLKSRLTIKIYTLRNQITLRLSNVTAADTAVYHCVRSGGDILYYYEWQKPHWFSPWGPGIHVTVSS VL: QSALTQPPSASGSLGQSVTISCNGTSSDIGGWNFVSWYQQFPGRAPRLIIFEVNKRPSGVPGRFSGSKSGNSASLTVSGLQSDDEGQYFCSSLFGRWDVVFGGGTKLTVL | 0.09 µg/mL |  |  |  | 0.09 µg/mL |  |  |  | 0.04 µg/mL | 0.07 µg/mL
5145_B14 (PGT-127) (antibody, V domains shown) VH: QPQLQESGPGLVEASETLSLTCTVSGDSTGRCNYFWGWVRQPPGKGLEWIGSLSHCRSYYNTDWTYHNPSLKSRLTISLDTPKNQVFLRLTSVTAADTATYYCARFGGEVLVYRDWPKPAWVDLWGRGTLVVTVSS VL: QSALTQPPSASGSPGQSITISCTGTSNNFVSWYQQYPGKAPKLVIYEVNKRPSGVPDRFSGSKSGSTASLTVSGLQADDEGVYYCSSLVGNWDVIFGGGTKLTVL | 0.02 µg/mL |  | 0.08 µg/mL |  | 0.06 µg/mL | 0.08 µg/mL |  |  | 0.04 µg/mL | 
5114_A19 (PGT-128) (antibody, V domains shown) VH: QPQLQESGPTLVEASETLSLTCAVSGDSTAACNSFWGWVRQPPGKGLEWVGSLSHCASYWNRGWTYHNPSLKSRLTLALDTPKNLVFLKLNSVTAADTATYYCARFGGEVLRYTDWPKPAWVDLWGRGTLVTVSS VL: QSALTQPPSASGSPGQSITISCTGTSNNFVSWYQQHAGKAPKLVIYDVNKRPSGVPDRFSGSKSGNTASLTVSGLQTDDEAVYYCGSLVGNWDVIFGGGTKLTVL | 0.01 µg/mL | 0.04 µg/mL | 0.02 µg/mL | 0.04 µg/mL | 0.01 µg/mL | 0.02 µg/mL | 0.02 µg/mL | 0.06 µg/mL |  | 
4995_E20 (PGT-142) (antibody, V domains shown) VH: QVQLVQSGPEVKKPGSSVKVSCKASGNTFSKYDVHWVRQATGQGLEWVGWISHERDKTESAQRFKGRVTFTRDTSATTAYMELRGLTSDDTAIYYCTRGSKHRLRDYVLYDDYGLINYQEWNDYLEFLDVWGHGTAVTVSS VL: DTVVTQSPLSLPVTPGEAASMSCSSTQSLRHSNGANYLAWYQHKPGQSPRLLIRLGSQRASGVPDRFSGSGSGTHFTLKISRVEAEDAAIYYCMQGLNRPWTFGKGTKLEIK |  | 0.09 µg/mL |  |  | 0.4 µg/mL |  |  | 0.01 µg/mL |  | 
4970_K22 (PGT-144) (antibody, V domains shown) VH: QVQLVQSGAEVKKPGSSVKVSCKASGNTFRKYDVHWVRQATGQGLEWVGWMSHEGDKTESAQRFKGRVSFTRDNSASTAYIELRGLTSDDTAIYYCTGGSKHRLRDYVLYDDYGLINQQEWNDYLEFLDVWGHGTAVTVSS VL: DTVVTQSPLSLSVTPGEAASMSCTSTQSLRHSNGANYLAWYQHKPGQSPRLLIRLGSQRASGVPDRFSGSGSGTHFTLKISRVEADDAAIYYCMQGLNRPWTFGKGTKLEIK |  |  |  |  |  |  |  | 0.1 µg/mL |  | 
4980_N08 (PGT-143) (antibody, V domains shown) VH: QVQLEQSGAEVKKPGSSVKVSCKASGNTFSKYDVHWVRQATGQGLEWVGWMSHEGDKTESAQRFKGRVTFTRDTSASTAYMELRGLTSDDTAIYYCTRGSKHRLRDYVLYDDYGLINYQEWNDYLEFLDVWGHGTAVTVSS VL: DTVVTQSPLSLPVTPGEAASMSCTSTQSLRHSNGANYLAWYQHKPGQSPRLLIRLGSQRASGVPDRFSGSGSGTHFTLKISRVEPEDAAIYYCMQGLNRPWTFGKGTKLEIK |  |  |  |  |  |  |  | 0.02 µg/mL |  | 
4993_K13 (PGT-141) (antibody, V domains shown) VH: QVQLVQSGPEVKKPGSSVKVSCKASGNTFSKYDVHWVRQATGQGLEWVGWMSHEGDKTESAQRFKGRVTFTRDTSASTAYMELRGLTSDDTAIYYCTRGSKHRLRDYVLYDDYGLINYQEWNDYLEFLDVWGHGTAVTVSS VL: DTVVTQSPLSLPVTPGEAASMSCSSTQSLRHSNGANYLAWYQHKPGQSPRLLIRLGSQRASGVPDRFSGSGSGTHFTLKISRVEAEDAAIYYCMQGLNRPWTFGKGTKLEIK |  |  |  | 0.3 µg/mL |  |  |  | 0.01 µg/mL |  | 
4877_D15 (PGT-122) (antibody, V domains shown) VH: QVHLQESGPGLVKPSETLSLTCNVSGTLVRDNYWSWIRQPLGKQPEWIGYVHDSGDTNYNPSLKSRVHLSLDKSKNLVSLRLTGVTAADSAIYYCATTKHGRRIYGVVAFKEWFTYFYMDVWGKGTSVTVSS VL: TFVSVAPGQTARITCGEESLGSRSVIWYQQRPGQAPSLIIYNNNDRPSGIPDRFSGSPGSTFGTTATLTITSVEAGDEADYYCHIWDSRRPTNWVFGEGTTLIVL | 0.07 µg/mL | 0.03 µg/mL | 0.05 µg/mL | 0.05 µg/mL | 0.02 µg/mL | 0.05 µg/mL | 0.02 µg/mL |  |  | 
4858_P08 (PGT-123) (antibody, V domains shown) VH: QLHLQESGPGLVKPPETLSLTCSVSGASINDAYWSWIRQSPGKRPEWVGYVHHSGDTNYNPSLKRRVTFSLDTAKNEVSLKLVDLTAADSATYFCARALHGKRIYGIVALGELFTYFYMDVWGKGTAVTVSS VL: SSMSVSPGETAKISCGKESIGSRAVQWYQQKPGQPPSLIIYNNQDRPAGVPERFSASPDFRPGTTATLTITNVDAEDEADYYCHIYDARGGTNWVFDRGTTLTVL | 0.02 µg/mL | 0.01 µg/mL | 0.03 µg/mL | 0.04 µg/mL | 0.02 µg/mL | 0.03 µg/mL | 0.02 µg/mL |  |  | 0.09 µg/mL
4995_P16 (PGT-145) (antibody, V domains shown) VH: QVQLVQSGAEVKKPGSSVKVSCKASGNSFSNHDVHWVRQATGQGLEWMGWMSHEGDKTGLAQKFQGRVTITRDSGASTVYMELRGLTADDTAIYYCLTGSKHRLRDYFLYNEYGPNYEEWGDYLATLDVWGHGTAVTVSS VL: EVVITQSPLFLPVTPGEAASLSCKCSHSLQHSTGANYLAWYLQRPGQTPRLLIHLATHRASGVPDRFSGSGSGTDFTLKISRVESDDVGTYYCMQGLHSPWTFGQGTKVEIK | 0.4 µg/mL |  |  |  | 0.09 µg/mL |  |  |  |  | 
